For one substance, Kd results are on record in publication PMC7290210 (Infection, Genetics and Evolution, 2020).

The assay has as its target SARS-CoV2 S2 ECD (Severe acute respiratory syndrome coronavirus 2, UniProt P0DTC2). The format is binding, SARS-CoV-2. The settings on record: pH 5.5.

Glycyrrhizic acid returned a Kd of 2400 µM.

By Kd is commonly meant the concentration at which binding is half-saturated. A lower Kd goes with tighter binding.
